In ChEMBL document CHEMBL1155284, “Synthesis and antibacterial activity of some new thiadiaza/triazaphospholes, thiadiaza/triaza/tetrazaphosphinines and thiadiaza/tetrazaphosphepines containing 1,2,4-triazinone moiety” (Eur J Med Chem, 2009):
Converted amounts (≈) assume the structure as drawn.

Tests used:
[1] = system: Staphylococcus epidermidis; experiment: Antimicrobial activity against Staphylococcus epidermidis MTCCB 1824 at 100 ug/mL after 16 to 20 hrs by disk diffusion method
[2] = system: Pseudomonas aeruginosa; experiment: Antimicrobial activity against Pseudomonas aeruginosa ATCC 27853 at 100 ug/mL after 16 to 20 hrs by disk diffusion method
[3] = system: Staphylococcus aureus; experiment: Antimicrobial activity against Staphylococcus aureus MTCCB 737 at 100 ug/mL after 16 to 20 hrs by disk diffusion method
[4] = system: Escherichia coli; experiment: Antimicrobial activity against Escherichia coli MTCCB 1652 at 100 ug/mL after 16 to 20 hrs by disk diffusion method
[5] = system: Staphylococcus epidermidis; experiment: Antimicrobial activity against Staphylococcus epidermidis MTCCB 1824 after 24 hrs by tube dilution technique
[6] = system: Staphylococcus aureus; experiment: Antimicrobial activity against Staphylococcus aureus MTCCB 737 after 24 hrs by tube dilution technique
[7] = system: Pseudomonas aeruginosa; experiment: Antimicrobial activity against Pseudomonas aeruginosa ATCC 27853 after 24 hrs by tube dilution technique
[8] = system: Escherichia coli; experiment: Antimicrobial activity against Escherichia coli MTCCB 1652 after 24 hrs by tube dilution technique

SMILES	diameter of the inhibition zone (DIZ) [1]	diameter of the inhibition zone (DIZ) [2]	diameter of the inhibition zone (DIZ) [3]	diameter of the inhibition zone (DIZ) [4]	MIC [5]	MIC [6]	MIC [7]	MIC [8]
CCOP1(=O)C(C)NN=C2N(N)C(=O)C(C)=NN21 (centres undefined)	23 mm	28 mm	25 mm	21 mm	6.25 µg/mL (≈ 22.8 µM)	6.25 µg/mL (≈ 22.8 µM)	6.25 µg/mL (≈ 22.8 µM)	12.5 µg/mL (≈ 45.6 µM)
CCOP1(=O)Nc2nnc(C)c(=O)n2NC1C (centres undefined)	24 mm	29 mm	27 mm	25 mm	6.25 µg/mL (≈ 24.1 µM)	6.25 µg/mL (≈ 24.1 µM)	6.25 µg/mL (≈ 24.1 µM)	6.25 µg/mL (≈ 24.1 µM)
C/C=N/N1c2nnc(C)c(=O)n2NP1(=O)c1ccccc1 (centres undefined)	17 mm	16 mm	20 mm	14 mm	50 µg/mL (≈ 164 µM)	25 µg/mL (≈ 82.2 µM)	50 µg/mL (≈ 164 µM)	50 µg/mL (≈ 164 µM)
